A mixed list of measured activities; the numbers were collected in NIAID ChemDB.

Shared fields: whole-cell or culture tests; species: HIV-1; cells: CEM; measure: fold resistance

Fold resistance: result on the changed form divided by that on wild type.

CCc1cc(NCc2nc3c(Cl)ccc(Cl)c3o2)c(=O)[nH]c1C ; strain or isolate: IIIB-TIBO(0.5)(RT-L100I) ; mutations: RT-L100I ; read by: syncytia ; value: 17
CC(C)=CCOc1cc(NC(=S)c2ccsc2C)ccc1Cl ; strain or isolate: IIIB ; mutations: RT-V106A ; read by: syncytia ; value: 13.89
Fc1cccc(F)c1C1SCc2nc3ccccc3n21 ; mutations: RT-E138K ; read by: cytopathic effect ; value: 1.24
CC[C@H]1C(=O)Nc2ccc(F)cc2N1C(=O)OC(C)C ; strain or isolate: J-2 (RT-Y181C) ; mutations: RT-Y181C ; read by: cytopathic effect ; value: 9
Cc1cn([C@@H]2O[C@H](CO[Si](C)(C)C(C)(C)C)C3(OS(=O)(=O)C=C3N)[C@H]2O[Si](C)(C)C(C)(C)C)c(=O)n(C)c1=O ; strain or isolate: IIIB ; mutations: RT-L100I ; read by: cytopathic effect / XTT ; value: 2
Fc1cccc(F)c1C1OCc2nc3ccccc3n21 ; strain or isolate: TIBO R82150-resistant (RT L100I) ; mutations: RT-L100I ; read by: cytopathic effect / MTT ; value: 1.73
N#CCN1C(=O)N(Cc2cccc(F)c2)S(=O)(=O)c2cscc21 ; mutations: RT-E138K ; read by: syncytia ; value: 4.83
Nc1ccn([C@H]2CC[C@@H](CO)O2)c(=O)n1 ; strain or isolate: IIIB-TSAO-m3T(10)(RT-Y181C) ; mutations: RT-Y181C ; read by: syncytia ; value: 0.4
Nc1cc(OCCOCP(=O)(O)O)nc(N)n1 ; strain or isolate: Clinical isolate L6.5 ; mutations: RT-S68G K70T V75I F77L K103N F116Y Q151M K219R ; read by: syncytia ; value: 1.68
CCOCn1c(Sc2ccccc2)c(CC)c(=O)[nH]c1=O ; strain or isolate: IIIB PYR(RT-Y181C) ; mutations: RT-Y181C ; read by: syncytia ; value: 52
CC(C)Nc1cccnc1N1CCN(C(=O)c2cc3ccccc3[nH]2)CC1 ; strain or isolate: TSAO(RT-E138K) ; mutations: RT-E138K ; read by: syncytia ; value: 1.75
N#CCN1C(=O)N(Cc2ccccc2)S(=O)(=O)c2cscc21 ; mutations: RT-V106A ; read by: syncytia ; value: 130
CC(C)=CCN1Cc2cc(Cl)cc3[nH]c(=S)n(c23)C[C@@H]1C ; strain or isolate: IIIB TSAO-T(RT-E138K) ; mutations: RT-E138K ; read by: syncytia ; value: 5
Fc1cccc(Cl)c1C1OCc2nc3ccccc3n21 ; strain or isolate: TIBO R82150-resistant (RT K103N) ; mutations: RT-K103N ; read by: cytopathic effect / MTT ; value: >2.35
CC(C)=CCN1Cc2cccc3[nH]c(=S)n(c23)C[C@@H]1C ; strain or isolate: IIIB nevirapine-resistant (RT Y181C) ; mutations: RT-Y181C ; read by: syncytia ; value: 100
Nc1nc2c(ncn2[C@H]2CC[C@@H](CO)O2)c(=O)[nH]1 ; strain or isolate: TIBO-2(RT-K103N) ; mutations: RT-K103N ; read by: syncytia ; value: 1
CCOCn1c(Cc2ccccc2)c(CC)c(=O)[nH]c1=O ; strain or isolate: IIIB TIBO R82913-resistant (RT K103N) ; mutations: RT-K103N ; read by: syncytia ; value: 60
CCNc1cccnc1N1CCN(C(=O)c2cc3cc(OC)ccc3[nH]2)CC1 ; strain or isolate: IIIB-Nevirapine(0.1)(RT-Y181C) ; mutations: RT-Y181C ; read by: syncytia ; value: 3.35
Cc1ccnc2c1NC(=O)c1cccnc1N2C1CC1 ; strain or isolate: A-0 (RT-L100I) ; mutations: RT-L100I ; read by: cytopathic effect ; value: 3
Nc1ncnc2c1ncn2CCOCP(=O)(O)O ; strain or isolate: Clinical isolate L6.5 ; mutations: RT-S68G K70T V75I F77L K103N F116Y Q151M K219R ; read by: syncytia ; value: 20
CC(C)=CCN1Cc2cc(Cl)cc3[nH]c(=S)n(c23)C[C@@H]1C ; strain or isolate: IIIB-Pyridinone(0.1)(RT-V179N ; mutations: RT-V179N ; read by: syncytia ; value: 157
Nc1ncnc2c1ncn2CCOCP(=O)(O)O ; strain or isolate: IIIB TIBO R82913 STR-B02 (RT L100I E138K) ; mutations: RT-L100I E138K ; read by: syncytia ; value: 2.43
CCOCn1c(Cc2ccccc2)c(C(C)C)c(=O)[nH]c1=O ; strain or isolate: C-1 (RT-K101E) ; mutations: RT-K101E ; read by: cytopathic effect ; value: 3
Cc1cn([C@@H]2O[C@H](CO[Si](C)(C)C(C)(C)C)C3(OS(=O)(=O)C=C3N)[C@H]2O[Si](C)(C)C(C)(C)C)c(=O)n(C)c1=O ; strain or isolate: Quin-0.1 (RT V106A P225H) ; mutations: RT-V106A P225H ; read by: syncytia ; value: 55
CCOCn1c(Cc2cc(C)cc(C)c2)c(CC)c(=O)[nH]c1=O ; strain or isolate: IIIB TIBO R82913-resistant (RT K103N) ; mutations: RT-K103N ; read by: syncytia ; value: 6.67
CC(C)=CCN1Cc2cc(Cl)cc3[nH]c(=S)n(c23)C[C@@H]1C ; strain or isolate: IIIB ; mutations: RT-V106A ; read by: cytopathic effect ; value: 31.25
C[C@H](Cn1cnc2c(N)ncnc21)OCP(=O)(O)O ; strain or isolate: Clinical isolate C19 ; mutations: RT-M41L V118I L210W T215Y ; read by: syncytia ; value: 25.3
O=c1[nH]cnc2c1ncn2[C@H]1CC[C@@H](CO)O1 ; strain or isolate: IIIB ; mutations: RT-V179D ; read by: syncytia ; value: 1.38
Fc1cccc(F)c1C1SCc2nc3ccccc3n21 ; strain or isolate: IIIB ; mutations: RT-V106N ; read by: cytopathic effect / XTT ; value: 5.49
CN1C(=O)N(Cc2ccccc2)S(=O)(=O)c2cscc21 ; mutations: RT-Y188H ; read by: syncytia ; value: >141
Cc1c(Sc2ccccc2)n(COCCO)c(=O)[nH]c1=O ; strain or isolate: IIIB NEV(RT-V106A) ; mutations: RT-V106A ; read by: syncytia ; value: 12
Cc1cn([C@@H]2O[C@H](CO[Si](C)(C)C(C)(C)C)C3(OS(=O)(=O)C=C3N)[C@H]2O[Si](C)(C)C(C)(C)C)c(=O)n(C)c1=O ; strain or isolate: IIIB ; mutations: RT-V179D ; read by: cytopathic effect ; value: 6.47
Nc1nc2c(ncn2[C@H]2CC[C@@H](CO)O2)c(=O)[nH]1 ; strain or isolate: IIIB nevirapine-resistant (RT Y181C) ; mutations: RT-Y181C ; read by: syncytia ; value: 3
CCn1c(=O)c(C)cn([C@@H]2O[C@H](CO[Si](C)(C)C(C)(C)C)C3(OS(=O)(=O)C=C3N)[C@H]2O[Si](C)(C)C(C)(C)C)c1=O ; strain or isolate: IIIB TIBO R82913-resistant (RT K103N) ; mutations: RT-K103N ; read by: syncytia ; value: 3.83
O=c1[nH]cnc2c1ncn2[C@H]1CC[C@@H](CO)O1 ; strain or isolate: IIIB TIBO R82913 STR-B02 (RT L100I E138K) ; mutations: RT-L100I E138K ; read by: syncytia ; value: 1.3
C[C@H](COc1cc(N)nc(N)n1)OCP(=O)(O)O ; strain or isolate: Clinical isolate HA20.17 ; mutations: RT-A62V V75I F77L Q151M M184V ; read by: syncytia ; value: 2.35
Cc1cn([C@@H]2O[C@H](CO[Si](C)(C)C(C)(C)C)[C@@]3(OS(=O)(=O)C=C3N)[C@H]2O[Si](C)(C)C(C)(C)C)c(=O)[nH]c1=O ; strain or isolate: IIIB TIBO R82913 STR-B22 (RT L100I Y188H) ; mutations: RT-L100I Y188H ; read by: syncytia ; value: 133
O=C1N(Cc2ccccc2)c2cscc2S(=O)(=O)N1Cc1ccccc1 ; mutations: RT-E138K ; read by: syncytia ; value: ≥5.78
Fc1cccc(F)c1[C@H]1SCc2nc3ccccc3n21 ; strain or isolate: IIIB ; mutations: RT-K103N ; read by: cytopathic effect / XTT ; value: ≥11.1

3 of the rows above, restated:

structure | strain or isolate | mutations | read by | value
CC(C)=CCN1Cc2cccc3[nH]c(=S)n(c23)C[C@@H]1C | IIIB nevirapine-resistant (RT Y181C) | RT-Y181C | syncytia | 100
CC(C)=CCOc1cc(NC(=S)c2ccsc2C)ccc1Cl | IIIB | RT-V106A | syncytia | 13.89
CC(C)=CCN1Cc2cc(Cl)cc3[nH]c(=S)n(c23)C[C@@H]1C | IIIB TSAO-T(RT-E138K) | RT-E138K | syncytia | 5

Lines come from different laboratories, so protocols vary.